Values from PubChem BioAssay AID624099 (ICCB-Longwood, 2012).

- Purpose: 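Host factors E2 relies on to silence an HPV18 LCR reporter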 (primary screen)
- Cells: human C33A cervical carcinoma cells (HPV-negative) stably expressing BPV1 E2 and an HPV18 LCR luciferase reporter
- Knock-down reagent: siRNA pool against human genes, 40 nM
- Timing: 72 h
- Read-out: 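HPV18 LCR reporter light per well, converted to plate-wise z-scores that exclude control wells, and averaged over triplicate plates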
- Reading the numbers: mean z-score and z-score: higher = stronger reporter signal, weaker E2 silencing
- Rule for the call: 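Mean z ≥ 2 together with z ≥ 2 in two or more of the three replicates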
Shown is one part, drawn at random, of about 21,000 reagents. 497 of them (2.4%) count as active. 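Higher z means weaker E2 silencing; only reporter increases were scored, and knock-downs that hurt cell survival may mask genuine repressor factors.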 Entries without a mark were called inactive. The numbers tell different reagents against one gene apart.

Target gene,pool no.,mean z-score,"z-score, replicate A","z-score, replicate B","z-score, replicate C"
ZC2HC1B,1,0.4,0.54,0.25,0.42
LOC389341 (retired record),1,-0.94,-0.83,-1.42,-0.57
CHPF2,1,1.76,1.58,2.01,1.68
SAP30BP,1,-0.72,-0.87,-0.66,-0.63
LCOR,1,-0.7,-0.78,-0.59,-0.74
LCOR,2,0.28,0.1,0.42,0.31
USP27X,1,-0.12,0.05,-0.2,-0.22
WDR31,1,-0.92,-1.07,-0.92,-0.79
LOC389224 (retired record),1,0.65,0.83,0.33,0.81
WNK1,1,-0.65,-0.71,-0.61,-0.63
WNK1,2,-1.11,-1.31,-1.02,-0.99
UPK1B,1,0.18,0.16,0.11,0.29
LOC388545 (retired record),1,0.03,0.03,0.15,-0.07
RASD2,1,1.03,0.81,1.37,0.91
OSCP1,1,0.43,0.5,0.41,0.39
TEKT3,1,0.61,0.34,0.75,0.73
LOC441243 (retired record),1,1.67,1.61,1.73,1.67
LINC00705,1,0.08,-0.05,0.2,0.1
OR51G2,1,-0.4,-0.56,-0.18,-0.45
FCMR,1,-0.04,0.02,-0.16,0.02
BRCA2,1,0.42,0.43,0.22,0.6
TEX46,1,1.23,1.67,1.01,1
CCDC116,1,1.06,1.17,0.96,1.07
ANKRD7,1,-0.01,0.37,-0.04,-0.37
LIME1,1,-0.62,-0.7,-0.86,-0.3
FAM89B,1,1.2,1.21,1.04,1.35
MPV17L,1,-1.8,-1.63,-1.7,-2.06
IDI1,1,-0.44,-0.45,-0.29,-0.59
TUG1,1,0.58,0.4,0.67,0.67
DOCK9,1,-1.44,-1.34,-1.4,-1.58
FSTL3,1,-0.42,-0.52,-0.58,-0.16
LOC387710 (retired record),1,-0.65,-0.48,-0.41,-1.06
TMEM214,1,0.52,0.33,0.61,0.63
SAMD4B,1,0.66,0.85,0.71,0.43
ST13P3,1,1.28,1.29,1.3,1.25
LOC401607 (retired record),1,1.3,1.25,1.48,1.17
LOC400849 (retired record),1,-0.93,-1,-0.66,-1.15
KIAA0753,1,0.3,0.5,0.11,0.3
ABI3,1,1.94,1.78,2.04,1.99
GPD2,1,0.6,0.68,0.58,0.53
SLC30A9,1,0.62,0.99,0.47,0.39
ATG10,1,1.57,1.52,1.74,1.46
PLEKHA7,1,0.11,0.72,0.01,-0.4
ASPHD1,1,0.03,-0.37,0.32,0.13
NXF1,1,-3.83,-3.99,-3.69,-3.8
FBXL20,1,-0.65,-0.92,-0.38,-0.65
ABAT,1,0.44,0.69,0.19,0.44
TTLL4,1,0.39,0.43,0.29,0.46
TBC1D19,1,-0.09,-0.24,-0.45,0.42
ANKRD49,1,-0.93,-1.24,-0.65,-0.89
CTAGE4,1,-0.31,-0.39,-0.29,-0.24
DOP1A,1,0.73,0.67,0.53,0.99
TRIM49,1,0.51,0.22,0.96,0.33
FHIP2A,1,0.07,0.7,0,-0.48
PEX14,1,2.14 (active),2.27,2.17,1.97
WWP2,1,-0.5,-0.55,-0.45,-0.51
XYLT1,1,1.8,1.56,2.18,1.66
DMRT1,1,-0.88,-0.55,-0.81,-1.27
DCAF15,1,0.37,0.62,0.39,0.1
AK4,1,-1.03,-0.8,-1.19,-1.09
AK4,2,0.87,0.34,0.91,1.36
WARS2,1,-1.56,-1.61,-1.48,-1.6
SRBD1,1,-1.1,-1.04,-1.27,-1
CYP8B1,1,1.39,1.21,1.3,1.68
FAM169A,1,0.41,0.62,0.25,0.36
RPP25,1,0.64,1.26,0.55,0.1
CFAP161,1,0.28,0.52,0.03,0.31
ANKRD34C,1,-0.98,-0.85,-1.15,-0.95
TLX3,1,1.48,1.22,1.8,1.43
ASB2,1,-0.76,-0.77,-0.67,-0.84
C12orf60,1,0.65,0.41,0.76,0.77
MAP3K8,1,0.14,0.01,0.32,0.09
SPAG4,1,1.31,1.44,1.22,1.27

No new results follow: 10 of the entries above.
Target gene,pool no.,mean z-score,"z-score, replicate A","z-score, replicate B","z-score, replicate C"
GPD2,1,0.6,0.68,0.58,0.53
SLC30A9,1,0.62,0.99,0.47,0.39
ATG10,1,1.57,1.52,1.74,1.46
PLEKHA7,1,0.11,0.72,0.01,-0.4
ASPHD1,1,0.03,-0.37,0.32,0.13
NXF1,1,-3.83,-3.99,-3.69,-3.8
FBXL20,1,-0.65,-0.92,-0.38,-0.65
ABAT,1,0.44,0.69,0.19,0.44
TTLL4,1,0.39,0.43,0.29,0.46
TBC1D19,1,-0.09,-0.24,-0.45,0.42
